Experimental data taken from ChEMBL document CHEMBL6177978, “Toward Dual-Target Glycomimetics against Two Bacterial Lectins to Fight Pseudomonas aeruginosa-Burkholderia cenocepacia Infections: A Biophysical Study” (2025).

target: Fucose-binding lectin PA-IIL (Pseudomonas aeruginosa (strain ATCC 15692 / DSM 22644 / CIP 104116 / JCM14847 / LMG 12228 / 1C / PRS 101 / PAO1), UniProt Q9HYN5); assay: Binding affinity to Pseudomonas aeruginosa PAO1 LecB expressed in Escherichia coli BL21 (DE3) incubated for 5 hrs by fluorescence polarization assay

Row | SMILES | IC50
1 | C[C@@H]1O[C@H](CNC(=O)c2ccc(CN)cc2)[C@@H](O)[C@H](O)[C@@H]1O | 170 nM
2 | C[C@@H]1O[C@H](CNC(=O)c2cccc(CN)c2)[C@@H](O)[C@H](O)[C@@H]1O | 280 nM
3 | C[C@@H]1O[C@H](CNC(=O)/C=C/c2ccccc2)[C@@H](O)[C@H](O)[C@@H]1O | 300 nM
